For 28 molecules, inhibition results are on record in PubChem BioAssay AID449762 (Southern Research Specialized Biocontainment Screening …, 2010).

Some of the results follow. Results filed as inconclusive are left out. Activity calls are given as the source filed them. No stated cut-off is given here; in the data, inconclusive means inhibition above about 70% without an active follow-up result; inactive means below that.

This test can be described thus: M. tuberculosis growth inhibition, HTS (AID 449762).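 Further: bacterial growth assessed after seven days of incubation.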 To be noted: M. tuberculosis H37Rv growth inhibition, 7H9 media; at 25 µM; stronger effect = higher value.
For `O=C(Nc1cc([As](=O)(O)O)ccc1O)c1ccccc1`, the inhibition is inactive: -4.4%.
In the case of `O=[N+]([O-])c1ncn(CCn2ncnc2[N+](=O)[O-])n1` it was inactive: 1.67%; in that of `CC(C)(C)C(=O)NC(Sc1ccncn1)C(Cl)(Cl)Cl` (stereo not drawn), inactive: -2.32%; in that of `O=C(O)CNc1ccc([As](=O)(O)O)cc1`, inactive: 6.66%.
Regarding `O=[N+]([O-])c1cccc(NC2=NCC(CBr)S2)c1` (stereo not drawn), the inhibition was inactive: -0.5%.
Regarding `COc1ccc(C2=NCC(CBr)S2)cc1` (stereo not drawn), the inhibition is inactive: 3.37%.
Consider `CCc1nc2c(n1)c1c(non1O)c1c2no[n+]1[O-]`, for which the inhibition is inactive: 55%.
For `Cc1ccc(NP(=O)(Oc2ccccc2)Oc2ccccc2)nc1` the value was inactive: 2.83%; for `CC(=O)N1C2C3N(C(C)=O)C1C1N(C(C)=O)C(C(N1C(C)=O)N3C(C)=O)N2C(C)=O`, inactive: 2.33%; for `O=[N+]([O-])c1cccc2n[nH]nc12`, inactive: -2.09%.
Regarding `CCN(/C(=N/P(=O)(N1CCOCC1)N1CCOCC1)N1CCOCC1)c1ccc(OC)cc1`, the inhibition was inactive: 8.34%.
In the case of `C[N+]1=C2C=CC=CC=C2SC12C([N+](=O)[O-])=CC([N+](=O)[O-])=C[C-]2[N+](=O)[O-]` (stereo not drawn) it was inactive: 3.65%; in that of `Nc1ccc([As](=O)(O)c2ccc(N)cc2)cc1`, inactive: 1.59%; in that of `CN(C)C(=O)OCCc1n(C)cc[n+]1C`, inactive: 2.77%.
Turning to `CC(C)=N/N=C(\N)N[N+](=O)[O-]`, the inhibition is inactive: -6.83%.
In the case of `Cc1ccc(N/C(=N/P(=O)(N2CCOCC2)N2CCOCC2)N2CCOCC2)cc1`, the inhibition was inactive: -0.93%.
On to `CN(C(=O)Cc1ccc(Cl)c(Cl)c1)[C@H]1CCCC[C@H]1N1CCCC1`, for which the inhibition was inactive: -6.06%.
In the case of `NC(=O)c1cc([N+](=O)[O-])cc([N+](=O)[O-])c1N` it was inactive: 2.88%; in that of `CN1CCCC(OC(=O)C(c2ccccc2)c2ccccc2)C1` (stereo not drawn), inactive: -5.87%; in that of `Clc1ccc(Cl)c(NC2=NCC(CBr)S2)c1` (stereo not drawn), inactive: 2.89%.
With `Cc1ccc(OP(=O)(Nc2nccs2)Oc2ccc(C)cc2)cc1`, the inhibition is inactive: 3.81%.
Turning to `COc1ccccc1OP(=O)(Nc1ccc(C)cn1)Oc1ccccc1OC`, the inhibition is inactive: 1.75%.
On to `O=C(NC(Sc1ccncn1)C(Cl)(Cl)Cl)c1ccccc1` (stereo not drawn), for which the inhibition was inactive: 3.97%.
In the case of `Cc1c2non([O-])c-2c(C)[n+](=O)[n+]1[O-]`, the inhibition was inactive: -8.85%.
Take `Oc1ccccc1CNc1ccccn1`: the inhibition is inactive: 7.7%.
`Nc1cc(N)c2nonc2c1[N+](=O)[O-]`: the inhibition was inactive: -1.83%.
On to `CC(C)CC(=O)NC(Sc1ccc(Cl)cc1)C(Cl)(Cl)Cl` (stereo not drawn), for which the inhibition is inactive: 4.99%.
For `O=P(Nc1nc2ccc(Cl)cc2s1)(c1ccccc1)c1ccccc1` the value was inactive: 1.68%.
